Compound potency records, mixed from different reports. Data source: NIAID ChemDB in PubChem.

CCn is the concentration with n% toxicity to the cells. An empty or dashed field is not shown. ECn is the concentration giving n% inhibition of infection, replication or growth. ICn: concentration for n% inhibition. Inhibition is in % at the dose shown (toxicity tests: loss of growth or viability). a–b is a range or a potency band. A number after MIC or MFC names an inhibition level or a share of isolates. Lines come from different laboratories, so protocols vary.

structure	read by	cells	test	target	organism	endpoint	strain or isolate	tested at	result
CCOC(=O)c1c(C)nc(NCCCCNc2ccnc3cc(Cl)ccc23)nc1-c1ccccc1			culture		Cryptococcus neoformans	MIC99	WP		8 µg/mL
O=c1c(-c2ccccc2F)c(O)c2cccnc2n1O		HeLa	toxicity			CC50			<100 µM
O=[N+]([O-])c1cc([N+](=O)[O-])c2ccc(S(=O)(=O)O)cc2c1O	cytopathic effect	Human embryonic lung cells	culture		Adenovirus	inhibition	TYPE 3	5 µg/mL	0%
CC(=O)N[C@H]1[C@H]([C@H](O)[C@H](O)CO)OC(C(=O)O)=C[C@@H]1N=C(N)N		MDCK	culture		Influenza A virus	EC50	H1N1 A/TEXAS/36/91		0.22 µM
Oc1ccc(O)c(C=Nc2ccccc2O)c1			culture		Cryptococcus neoformans	MIC99	VM-MCMMPI		8 µg/mL
O=C(Nc1c(S(=O)(=O)[O-])cc2cc(S(=O)(=O)[O-])cc(O)c2c1O)c1ccccc1	cytopathic effect	Human amnion AV3 cells	culture		Adenovirus	inhibition	TYPE 3	10 µg/mL	60%
O=C(O)c1cnn2c(C3CCCCC3)c(-c3ccc(F)cc3)cnc12			target	RNA-dependent RNA polymerase	Hepatitis C virus	IC50			<1 µM
Oc1ccccc1N=Cc1ccc(F)cc1			culture		Cryptococcus gattii	MIC99	L24/01		8 µg/mL
CCCCc1c(O)c2cccnc2n(O)c1=O		HeLa	toxicity			CC50			<100 µM
c1ccc(COc2ccc(-c3cnc4c(-c5nn[nH]n5)cnn4c3N3CCCCC3)cc2)cc1			target	RNA-dependent RNA polymerase	Hepatitis C virus	IC50			1–10 µM
COc1cccc(-c2cncc(N3CCN(c4ccncc4)CC3)n2)c1			target	UL97 kinase	Cytomegalovirus	inhibition		1 µM	<50%
CCOC(=O)c1c(C)nc(NCCCCNc2ccnc3cc(Cl)ccc23)nc1-c1ccccc1[N+](=O)[O-]			culture		Cryptococcus gattii	MIC99	L 27/01		32 µg/mL
Nc1ccc(S(=O)(=O)[O-])c2c(S(=O)(=O)[O-])ccc(O)c12	cytopathic effect	Human amnion AV3 cells	culture		Adenovirus	inhibition	TYPE 3	50 µg/mL	40%
Nc1nc(N)c2c(n1)CCC(Cc1cccc(C(F)(F)F)c1)C2			target	Dihydrofolate reductase	Cryptosporidium parvum	IC50	TYPE 1		0.45 µM
Cc1nc(NCCCCNc2ccnc3cc(Cl)ccc23)nc(-c2ccccc2[N+](=O)[O-])c1C(=O)OC(C)C			culture		Cryptococcus gattii	MIC99	1913 ER		8 µg/mL
CCOC(=O)c1cnn2c(-c3ccc(OCc4ccccc4)cc3)c(-c3ccccc3)cnc12			target	RNA-dependent RNA polymerase	Hepatitis C virus	IC50			>10 µM
Cc1nc(NCCCCNc2ccnc3cc(Cl)ccc23)nc(-c2ccccc2)c1C(=O)OC(C)C			culture		Cryptococcus gattii	MIC99	LMM 818		11.3 µg/mL
COc1ccc(-c2cncc(N3CCN(c4ccc(C)cc4)CC3)n2)cc1F			target	UL97 kinase	Cytomegalovirus	inhibition		10 µM	>15%
Nc1nc(N)c2cc(Cl)ccc2n1			target	Dihydrofolate reductase	Cryptosporidium parvum	IC50	TYPE 1		>10 µM
C=CCc1ccc(O)c(OC)c1	turbidity		culture		Candida glabrata	MIC90	ATCC 90030		490 µg/mL
CN1C(=O)c2c(c3cccnc3n(O)c2=O)NC1c1ccccc1		HeLa	toxicity			CC50			<100 µM
O=C(Nc1cc(S(=O)(=O)[O-])cc2cc(S(=O)(=O)[O-])ccc12)c1ccccc1	cytopathic effect	Human amnion AV3 cells	culture		Herpes simplex virus	inhibition		5 µg/mL	0%
Cc1ccc(N2CCN(c3cncc(-c4cc(C)cc(C)c4)n3)CC2)cc1			target	UL97 kinase	Cytomegalovirus	IC50			<100 µM
Fc1ccc(N2CCCCC2)c(NC(=S)c2ccncc2)c1	kinase activity		host protein	PAK1		inhibition		10 µM	0.7%
Nc1ccc2cc([N+](=O)[O-])cc(S(=O)(=O)[O-])c2c1	cytopathic effect	Human amnion AV3 cells	culture		Rhinovirus	inhibition		5 µg/mL	0%
O=C(O)c1cc2nc(-c3ccc(F)cc3)cc(-c3ccc(Cl)cc3)n2n1			target	RNA-dependent RNA polymerase	Hepatitis C virus	IC50			>10 µM
Oc1cccc(C=Nc2ccccc2O)c1			culture		Cryptococcus gattii	MIC99	547/OTTI-97-PI-10		8 µg/mL
CCOC(=O)CN1CCN(c2cc(=O)n(O)c3ncccc23)CC1		HeLa	toxicity			CC50			<100 µM
O=S(=O)(Nc1cnn2c(C3CCCCC3)c(-c3ccc(OCc4ccccc4)cc3)cnc12)c1cccs1			target	RNA-dependent RNA polymerase	Hepatitis C virus	IC50			>10 µM
Cc1cc(CCCOc2c(C)cc(-c3noc(C(F)(F)F)n3)cc2C)on1	cytopathic effect / visual reading	OHIO HELA-I	culture		Rhinovirus	EC50	Isolate 46		0.02 µg/mL
COc1ccc(-c2cc(-c3ccc(Oc4ccccc4)cc3)nc3cc(C(=O)O)nn23)cc1Cl			target	RNA-dependent RNA polymerase	Hepatitis C virus	IC50			1–10 µM
Nc1nc(N)c2nc(CN(c3ccccc3)c3ccccc3)cnc2n1			target	Dihydrofolate reductase	Cryptosporidium parvum	IC50	TYPE 1		>10 µM
COc1ccc(N2CCN(c3cncc(-c4ccc(C#N)cc4)n3)CC2)cc1			target	UL97 kinase	Cytomegalovirus	IC50			<10 µM
CCOC(=O)N1CCN(C(=O)c2ccc(N(C)Cc3ccc4nc(N)nc(N)c4n3)cc2)CC1			target	Dihydrofolate reductase	Cryptosporidium parvum	IC50	TYPE 1		3.2 µM
O=C(Nc1ccc(S(=O)(=O)[O-])c2cccc(S(=O)(=O)[O-])c12)c1ccccc1	cytopathic effect	Human amnion AV3 cells	culture		Herpes simplex virus	inhibition		5 µg/mL	0%
Nc1nc(N)c2c(n1)CCCc1cc(Cl)c(Cl)cc1-2			target	Dihydrofolate reductase	Cryptosporidium parvum	IC50	TYPE 1		>10 µM
O=S(=O)([O-])c1cc(NS(=O)(=O)c2ccccc2)c2c(S(=O)(=O)[O-])cc(S(=O)(=O)[O-])cc2c1	cytopathic effect	Human amnion AV3 cells	culture		Adenovirus	inhibition	TYPE 3	5 µg/mL	0%
O=C(Nc1nn[nH]n1)c1cnn2c(C3CCCCC3)c(-c3ccc(OCc4ccccc4)cc3)cnc12			target	RNA-dependent RNA polymerase	Hepatitis C virus	IC50			<1 µM
COc1ccc(OC)c(CC2CCc3nc(N)nc(N)c3C2)c1			target	Dihydrofolate reductase	Cryptosporidium parvum	IC50	TYPE 2		0.33 µM
Cc1cc(-c2ccc(N=Nc3c(S(=O)(=O)O)cc4cc(S(=O)(=O)O)cc(N)c4c3O)c(C)c2)ccc1N=Nc1c(S(=O)(=O)O)cc2cc(S(=O)(=O)O)cc(N)c2c1O	cytopathic effect	Human amnion AV3 cells	culture		Herpes simplex virus	inhibition		10 µg/mL	0%
CCO/N=C/c1ccc(OCCC2CCN(c3ccc(Cl)nn3)CC2)cc1	neutral red	KB	culture		Rhinovirus	EC50	FEB (ICAM-1 receptor group 3)		0.019 µM
O=C(N[C@@H](CO)C(=O)O)c1cc2nc(-c3ccc(Cl)cc3)cc(-c3ccc(Oc4ccccc4)cc3)n2n1			target	RNA-dependent RNA polymerase	Hepatitis C virus	IC50			1–10 µM
COc1cc(Cc2sc3nc(N)nc(N)c3c2C)cc(OC)c1OC			target	Dihydrofolate reductase	Cryptosporidium parvum	IC50	TYPE 2		2.3 µM
c1ccc(C2CN(c3ccccc3)CCN2c2cnccn2)cc1			target	UL97 kinase	Cytomegalovirus	inhibition		1 µM	<50%
Nc1nc(N)c2nc(CN3c4ccccc4Cc4ccccc43)cnc2n1			target	Dihydrofolate reductase	Cryptosporidium parvum	IC50	TYPE 2		1.7 µM
CS(=O)(=O)c1cccc(-c2ccc(-c3cnc4c(-c5nn[nH]n5)cnn4c3C3CCCCC3)cc2)c1			target	RNA-dependent RNA polymerase	Hepatitis C virus	IC50			<1 µM
Fc1ccccc1N1CCN(c2cncc(-c3ccc4ccccc4c3)n2)CC1			target	UL97 kinase	Cytomegalovirus	inhibition		1 µM	<50%

Again, the opening 3 rows:

CCOC(=O)c1c(C)nc(NCCCCNc2ccnc3cc(Cl)ccc23)nc1-c1ccccc1 ; test: culture ; organism: Cryptococcus neoformans ; endpoint: MIC99 ; strain or isolate: WP ; result: 8 µg/mL
O=c1c(-c2ccccc2F)c(O)c2cccnc2n1O ; cells: HeLa ; test: toxicity ; endpoint: CC50 ; result: <100 µM
O=[N+]([O-])c1cc([N+](=O)[O-])c2ccc(S(=O)(=O)O)cc2c1O ; read by: cytopathic effect ; cells: Human embryonic lung cells ; test: culture ; organism: Adenovirus ; endpoint: inhibition ; strain or isolate: TYPE 3 ; tested at: 5 µg/mL ; result: 0%